Measured values from several laboratories, pooled; numbers as filed in NIAID ChemDB.

Shared fields: enzyme or target tests; organism: Hepatitis C virus; protein: Nonstructural protein 5B; read-out: inhibition

Percent inhibition refers to the dose given; in toxicity tests it is the harm to the cells.

structure,tested at,strain or isolate,value
CN(C)C(=O)c1ccc(S(=O)(=O)Nc2ccc(N3CCOCC3)cc2)cc1,0.1 µg/mL,-,53%
Cc1cc(-c2ccccc2)nc(N2C(=O)CSC2c2c(Cl)cccc2Cl)n1,250 µM,NS5B,76.3%
O=C(NCCc1cccnc1)c1ccc(S(=O)(=O)Nc2ccc(N3CCOCC3)cc2)cc1,10 µg/mL,-,92%
CSc1nc(Nc2ccc(N3CCOCC3)cc2)cc(N2CCN(CC(=O)N3CCN(CCO)CC3)CC2)n1,1 µg/mL,-,70%
Nc1ncc2ncn([C@@H]3CO[C@H](COP(=O)(O)OP(=O)(O)OP(=O)(O)O)O3)c2n1,100 µM,-,44%
CSc1nc(Nc2ccc(N3CCOCC3)cc2)cc(N2CCN(CC(=O)NCCN(C)C)CC2)n1,1 µg/mL,-,73%
CON1C(Nc2ccc3cn[nH]c3c2)=NC(NC(C)C)=NC1NC(C)C,0.1 µg/mL,-,0%
Cc1cn([C@H]2CO[C@@H](COP(=O)(O)OP(=O)(O)OP(=O)(O)O)O2)c(=O)[nH]c1=O,100 µM,-,47%
COc1nc(Nc2ccc3[nH]ncc3c2)nc(N2CCC(O)CC2)n1,0.1 µg/mL,-,0%
CCN(CC)CCNC(=O)CN1CCN(c2cc(Nc3ccc(N4CCOCC4)cc3)nc(SC)n2)CC1,1 µg/mL,-,75%
CNC(=O)C1CCN(c2nc(Nc3ccc4[nH]ncc4c3)nc(OC)n2)CC1,0.1 µg/mL,-,0%
Nc1nc(=O)n([C@H]2CO[C@@H](COP(=O)(O)OP(=O)(O)OP(=O)(O)O)O2)cc1F,100 µM,-,57%
CNC(=O)CN1CCN(c2nc(Nc3ccc4[nH]ncc4c3)nc(OC)n2)CC1,1 µg/mL,-,20%
CSc1nc(Nc2ccc(N3CCOCC3)cc2)cc(N2CCN(CC(=O)N3CCN(c4cnccn4)CC3)CC2)n1,1 µg/mL,-,67%
O=C(NCCN1CCOCC1)c1ccc(S(=O)(=O)Nc2ccc(N3CCOCC3)cc2)cc1,1 µg/mL,-,61%
COCCN1CCN(C(=O)CN2CCN(c3cc(Nc4ccc(N5CCOCC5)cc4)nc(SC)n3)CC2)CC1,1 µg/mL,-,60%
Cc1cc(C(F)(F)F)nc(N2C(=O)CSC2c2c(Br)cccc2Br)n1,250 µM,NS5B,63.6%
CNC1N=C(OC)N=C(Nc2ccc3cn[nH]c3c2)N1CN,10 µg/mL,-,35%
CN(C)CCN(Cc1ccccc1)C(=O)c1ccc(S(=O)(=O)Nc2ccc(N3CCOCC3)cc2)cc1,0.1 µg/mL,-,48%
CSc1nc(Nc2ccc(N3CCOCC3)cc2)cc(N2CCN(CC(=O)NCCN3CCCC3)CC2)n1,1 µg/mL,-,72%
CCOC(=O)C1=CN(N2CCN(c3nc(Nc4ccc5[nH]ncc5c4)nc(OC)n3)CC2)C(SC)N=C1,10 µg/mL,-,49%
CSc1nc(Nc2ccc(N3CCOCC3)cc2)cc(N2CCN(CC(=O)N3CCN(C)CC3)CC2)n1,1 µg/mL,-,72%
CN(C)CCNc1cc(C(=O)Nc2ccc3cn[nH]c3c2)c(F)cc1F,0.1 µg/mL,-,0%
Cc1cc(C(F)(F)F)nc(N2C(=O)CSC2c2c(Cl)cccc2Cl)n1,250 µM,NS5B,75.6%

The last 2 rows once more:

structure | tested at | strain or isolate | value
CN(C)CCNc1cc(C(=O)Nc2ccc3cn[nH]c3c2)c(F)cc1F | 0.1 µg/mL | - | 0%
Cc1cc(C(F)(F)F)nc(N2C(=O)CSC2c2c(Cl)cccc2Cl)n1 | 250 µM | NS5B | 75.6%

An empty or dashed field is not shown. Neighbouring rows are from separate reports.